Results published in patent publication US10993448B2, “Method for sanitizing fresh produce” (Dole Fresh Vegetables, Inc., priority 2014, dated 2021).

What was measured:
Settings in all cases: for Average log reduction: vs water control
E. coli O157:H7 = test: Suspension tests, E. coli; type: cell-based
Salmonella = test: Suspension tests, Salmonella; type: cell-based, sv. Typhimurium
Listeria monocytogenes = test: Suspension tests, Listeria; type: cell-based

chlorine was tested, and the “Average (bacterial load)” value (E. coli O157:H7; 30 seconds at 4° C., Water 5.72 × 10^6) was 0.00, the Average log reduction (E. coli O157:H7; 30 seconds at 4° C.) was “*” and the “Average (bacterial load)” value (E. coli O157:H7; 30 seconds at 15° C., Water 5.96 × 10^6) was 0.00. For the same substance, the Average log reduction (E. coli O157:H7; 30 seconds at 15° C.) was “*”, the “Average (bacterial load)” value (E. coli O157:H7; 30 seconds at 40° C., Water 3.22 × 10^6) was 0.00 and the Average log reduction (E. coli O157:H7; 30 seconds at 40° C.) was “*”. The “Average (bacterial load)” value (E. coli O157:H7; 90 seconds at 4° C., Water 3.96 × 10^6) was 0.00, the Average log reduction (E. coli O157:H7; 90 seconds at 4° C.) was “*” and the “Average (bacterial load)” value (E. coli O157:H7; 90 seconds at 15° C., Water 5.74 × 10^6) was 0.00. The Average log reduction (E. coli O157:H7; 90 seconds at 15° C.) was “*”, the “Average (bacterial load)” value (E. coli O157:H7; 90 seconds at 40° C., Water 3.14 × 10^6) was 0.00 and the Average log reduction (E. coli O157:H7; 90 seconds at 40° C.) was “*”. The “Average (bacterial load)” value (Salmonella; 30 seconds at 4° C., Water 5.32 × 10^6) was 0.00, the Average log reduction (Salmonella; 30 seconds at 4° C.) was “*” and the “Average (bacterial load)” value (Salmonella; 30 seconds at 15° C., Water 2.70 × 10^6) was 0.00. The Average log reduction (Salmonella; 30 seconds at 15° C.) was “*”, the “Average (bacterial load)” value (Salmonella; 30 seconds at 40° C., Water 4.36 × 10^6) was 0.00 and the Average log reduction (Salmonella; 30 seconds at 40° C.) was “*”. For the same substance, the “Average (bacterial load)” value (Salmonella; 90 seconds at 4° C., Water 1.57 × 10^6) was 0.00, the Average log reduction (Salmonella; 90 seconds at 4° C.) was “*” and the “Average (bacterial load)” value (Salmonella; 90 seconds at 15° C., Water 4.54 × 10^6) was 0.00. For the same substance, the Average log reduction (Salmonella; 90 seconds at 15° C.) was “*”, the “Average (bacterial load)” value (Salmonella; 90 seconds at 40° C., Water 7.42 × 10^6) was 0.00 and the Average log reduction (Salmonella; 90 seconds at 40° C.) was “*”. The “Average (bacterial load)” value (Listeria monocytogenes; 30 seconds at 4° C., Water 4.96 × 10^5) was 0.00, the Average log reduction (Listeria monocytogenes; 30 seconds at 4° C.) was “*” and the “Average (bacterial load)” value (Listeria monocytogenes; 30 seconds at 15° C., Water 2.24 × 10^6) was 0.00. For the same substance, the Average log reduction (Listeria monocytogenes; 30 seconds at 15° C.) was “*”, the “Average (bacterial load)” value (Listeria monocytogenes; 30 seconds at 40° C., Water 2.32 × 10^6) was 0.00 and the Average log reduction (Listeria monocytogenes; 30 seconds at 40° C.) was “*”. For the same substance, the “Average (bacterial load)” value (Listeria monocytogenes; 90 seconds at 4° C., Water 2.06 × 10^5) was 0.00, the Average log reduction (Listeria monocytogenes; 90 seconds at 4° C.) was “*” and the “Average (bacterial load)” value (Listeria monocytogenes; 90 seconds at 15° C., Water 7.14 × 10^4) was 2.00 × 10^0. The Average log reduction (Listeria monocytogenes; 90 seconds at 15° C.) was 4.55, the “Average (bacterial load)” value (Listeria monocytogenes; 90 seconds at 40° C., Water 2.50 × 10^6) was 0.00 and the Average log reduction (Listeria monocytogenes; 90 seconds at 40° C.) was “*”.
